According to article PMC8386730, “Pyrrolidine-based 3-deoxysphingosylphosphorylcholine analogs as possible candidates against neglected tropical diseases (NTDs): identification of hit compounds towards development of potential treatment of Leishmania donovani” (Journal of Enzyme Inhibition and Medicinal Chemistry, 2021):

Assays:
HEK293T cells = test: Cytotoxicity against HEK293T cells (resazurin); assay type: cell-based, human; settings: CC50 HEK293T divided by IC50 intracellular L. donovani
Source text: As the extracellular promastigotes form represents the insect stage of the parasite, assessment of activity is needed to confirm activity against the intracellular amastigotes form, which is the human host form (mammalian host form). In addition, a preliminary assessment of selectivity and safety might be desirable to evaluate the quality of hit compounds. Accordingly, compound 1e and its enantiomer; 1a, in parallel with standard drugs miltefosine and erufosine were submitted for evaluation in intracellular amastigotes model using infected THP-1 cells; human monocytic cell line derived from an acute monocytic leukaemia. In addition, cytotoxicity of tested compounds and standards were evaluated against THP-1 cells and normal human embryonic kidney cells; HEK293T to evaluate selectivity and safety. Cytotoxicity against HEK293T cell growth was assayed by measuring the conversion of resazurin to resorufin. The assays were performed in 384-well plates that were seeded with HEK293T cells (1000 cells per well). After seeding, the cells were exposed to the compounds for 3 days. Resazurin sodium salt (200 µM; R7017; Sigma-Aldrich, St. Louis, MO, USA) was then added, and the samples were incubated for 5 h. After incubation, the […] were fixed using 4% paraformaldehyde, and the plates were analysed using a Victor3TM plate reader (PerkinElmer, Inc., Waltham, MA, USA) at 590 nm (emission) and 530 nm (excitation). Miltefosine and saponin were used as the reference drugs for the HEK293T growth inhibition.

[1] = tested on: L. donovani promastigotes; test: Growth inhibition of L. donovani promastigotes (resazurin-based assay); assay type: cell-based, Leishmania donovani; settings: enantiomers 1e/1a
Description: Out of 20 known Leishmania species pathogenic to humans, L. donovani, which causes visceral leishmaniasis, is the most fatal. Consequently, an in vitro model of L. donovani promastigotes[26] was selected to evaluate the activity of the synthesised pyrrolidine-based 3-deoxysphingosylphosphorylcholine analogs 1e–i, 2a–f, 3a–f at two concentration (50 and 25 µM) employing miltefosine and erufosine (ErPC; erucylphosphocholine) as reference standards using a resazurin-based assay.
For comparison, erufosine and miltefosine were used as reference standards.
L. donovani MHOM/SD/62/1S-CL2D parasites were cultured as promastigotes at 28 °C in M199 medium (Sigma-Aldrich, St. Louis, MO, USA) with 40 mM HEPES, 0.1 mM adenine, 0.0001% biotin, and 4.62 mM NaHCO3 supplemented with 10% foetal bovine serum (FBS, Gibco, Carlsbad, CA, USA), […] penicillin (Gibco), and 100 µg/mL streptomycin (Gibco). Parasites were sub-cultured every 3 or 4 days and maintained for 10 passages.
The plates were analysed using a Victor3TM plate reader (PerkinElmer, Inc., Waltham, MA, USA) at 590 nm (emission) and 530 nm (excitation). Miltefosine and erufosine were used as the reference standards. All measured and calculated values are the averages of duplicates. The dose-response curves were generated by GraphPad Prism 6 software using a sigmoidal dose-response equation with a variable hill slope option.

SMILES | Safety index (HEK293T cells) | Eudismic ratio [1]
CCCCCCCC/C=C\CCCCCCCCCCCCOP(=O)([O-])OCC[N+](C)(C)C [Erufosine, erucylphosphocholine, reference compound] | 11.3 | –
CCCCCCCCCCCCCCCC(=O)N1CCC[C@H]1COP(=O)([O-])OCC[N+](C)(C)C [Compound 1e] | 3.2 | 0.54
CCCCCCCCCCCCCCCCOP(=O)([O-])OCC[N+](C)(C)C [Miltefosine, miltefosine, reference compound] | >78.4 | –
CCCCCCCCCCCCCCCC(=O)N1CCC[C@@H]1COP(=O)([O-])OCC[N+](C)(C)C [Compound 1a] | 2.7 | 0.54
